Assay [1] addresses T1, GmhAVP (Vibrio parahaemolyticus, UniProt Q87MG7).
T1 construct: gene gmhA
Briefly: HPLC of coupled one-pot reaction with GmhB and HldE. Type of assay: biochemical. The note with it: 0.2 mM S7P, 2 mM ATP, 2 mM MgCl2, 2 mM KCl, pH 8.0, 30 °C, 2 h; also with E. coli GmhB + HldE.

Chains of the proteins cited; added tags and fusions are not shown.
UniProt Q87MG7, whole entry: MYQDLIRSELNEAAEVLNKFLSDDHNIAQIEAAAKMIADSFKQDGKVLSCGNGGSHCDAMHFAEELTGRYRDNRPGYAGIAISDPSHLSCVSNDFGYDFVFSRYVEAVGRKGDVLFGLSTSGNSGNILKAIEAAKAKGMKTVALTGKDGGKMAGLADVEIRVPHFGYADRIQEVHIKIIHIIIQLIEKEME

Assay [2] deals with T2, GmhBVP (Vibrio parahaemolyticus, UniProt Q87RR9).
T2 construct: gene VP0708
Kind of assay: HPLC of coupled one-pot reaction with GmhA and HldE. The class given is biochemical. Conditions: HBP formed in situ from 0.2 mM S7P and 2 mM ATP, 2 mM MgCl2, pH 8.0, 30 °C, 2 h.

Regarding `O=P(O)(O)OC[C@@H](O)[C@H]1OC(O)(CO)[C@@H](O)[C@@H]1O` (some centres unmarked) [S7P], in assay [1], the “HPLC of coupled one-pot reaction with GmhB and HldE” value was “these results confirmed that GmhAVC and GmhAVP are S7P isomerases”. `O=P(O)(O)OC[C@@H](O)[C@H]1O[C@@H](OP(=O)(O)O)[C@@H](O)[C@@H](O)[C@@H]1O` [HBP]: in assay [2], the “HPLC of coupled one-pot reaction with GmhA and HldE” value was “GmhBVC and GmhBVP are HBP phosphatases”.

The values above are taken from publication PMC10948575, “Characterization of the ADP-β-D-manno-heptose biosynthetic enzymes from two pathogenic Vibrio strains” (Applied Microbiology and Biotechnology, 2024).
